Test [1] concerns the target T1, CCR5 (Homo sapiens, UniProt P51681). Description: cell-based. Format: binding. Also noted: expressed in transfected cells; host or cells: ChfTh-CCR5 expressing cells (so in the source).
Test [2] concerns the target T1, CCR5. The following applies: Cf2Th/synR5 cells, gp120 Bal-sCD4 complex.
Test [3] addresses T1, CCR5. Description: biochemical. Format: binding. Also noted: expressed in transfected cells; host or cells: GHOST CD4.CCR5.
Setting [4] is: gp120BaL/sCD4, Cf2Th/synR5 cells.

The chains behind the UniProt entries cited, without tags or fusion partners.
UniProt P51681, whole entry: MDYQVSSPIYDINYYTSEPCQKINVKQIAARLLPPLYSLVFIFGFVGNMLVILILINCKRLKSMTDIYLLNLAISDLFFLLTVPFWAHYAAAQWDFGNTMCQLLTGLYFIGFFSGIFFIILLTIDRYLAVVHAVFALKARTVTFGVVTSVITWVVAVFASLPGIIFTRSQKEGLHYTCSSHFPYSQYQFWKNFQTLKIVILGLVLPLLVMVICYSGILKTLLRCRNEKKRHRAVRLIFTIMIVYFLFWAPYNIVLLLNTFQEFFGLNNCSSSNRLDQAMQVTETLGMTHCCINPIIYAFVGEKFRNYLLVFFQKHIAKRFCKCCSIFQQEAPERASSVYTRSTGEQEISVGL

This note sets out measurements from patent US10973906B2, “Therapeutic peptides and vaccines” (priority 2005, dated 2021).

Usually IC50 stands for the concentration that inhibits the measured activity by half. Low readings indicate inhibition by little substance, high ones a need for much substance. Usually Hill slope stands for a measure of the steepness of the concentration-response curve. On to `C[C@@H](N)C(=O)N[C@@H](CO)C(=O)N[C@H](C(=O)N[C@H](C(=O)N[C@H](C(=O)N[C@@H](CC(N)=O)C(=O)N[C@@H](Cc1ccc(O)cc1)C(=O)N[C@H](C(N)=O)[C@@H](C)O)[C@@H](C)O)[C@@H](C)O)[C@@H](C)O` [DAPTA, Dala1-peptide T-amide], for which the IC50 is 0.055 nM at CCR5 [1] (IC50, inhibition of gp120BaL/sCD4 binding to CCR5, gp120BaL/sCD4, Cf2Th/synR5 cells, 100 nM sCD4); 0.32 nM on CCR5 [1] (IC50, inhibition of gp120CM235/sCD4 binding to CCR5, gp120CM235/sCD4, Cf2Th/synR5 cells); 0.051 nM against CCR5 [3]. Also, the Hill slope on CCR5 [1] (setting [4]) is recorded as −1.07. Besides, the “inhibition of binding of gp120BaL/sCD4 to CCR5” value at CCR5 [1] (setting [4]) was “completely inhibited”. The “co-immunoprecipitation of gp120-CD4 complex with CCR5 receptor” value at CCR5 [2] is “prevents co-immunoprecipitation”.
